Anti-infective test results gathered from many reports (values: NIAID ChemDB through PubChem).

All rows: whole-cell or culture tests; organism: Mycobacterium tuberculosis

a–b is a range or a potency band.

compound,cell line,strain,changes,conditions,read by,read-out,tested at,value
O=C(/C=C/c1cc2cc(F)ccc2nc1Cl)c1ccc(Cl)cc1Cl,,H37Rv,,,broth dilution,inhibition,6.25 µM,13%
N#C/C(=C\c1ccc2c(c1)OCO2)n1nc2ccccc2n1,,H37Rv,,,,inhibition,12.5 µg/mL,0%
CC(=O)Nc1ccc(/C=N/NC(N)=S)cc1,,14 strains,,,,MIC90,,0.25 µg/mL
CCCCCC(CC(=O)N1N=CCCC1C(=O)N[C@H]1COC(=O)C2C[C@@H](C)CNN2C(=O)[C@H](C)NC(=O)[C@@H](CC(C)C)NC1=O)C(=O)O,,246,,,,MIC,,25 µg/mL
Nc1nc(-c2ccc(Cl)c(Cl)c2)cc(-c2cc3cc(Br)ccc3nc2Cl)n1,,H37Rv,,,broth dilution,inhibition,6.25 µg/mL,16%
CCCCCCCCCCCC[n+]1ccccc1.CCCCCCCCCCCC[n+]1ccccc1.S=C([S-])NCCNC(=S)[S-],,H37Rv,,,BACTEC,MIC bound,,>12.5 µg/mL
Cc1cccc(/C=C2\COc3ccccc3C2=O)c1,,H37Rv,,,broth dilution / resazurin,EC50,,0.46 µg/mL
CCN(CC)C1=NS(=O)(=O)c2ccccc2C(SC)=C1C,,H37Rv,,,BACTEC,MIC bound,,>12.5 µg/mL
CN[C@@H]1[C@@H](O)C(O[C@@H]2[C@@H](O)[C@H](OC3O[C@H](CN)[C@@H](O)[C@H](O)[C@H]3O)[C@@H](N)C[C@H]2NC(=O)[C@@H](O)CN)OC[C@]1(C)O,,T45,,,,MIC,,1.56 µg/mL
O=c1oc2ccccc2c(O)c1C1=Nc2ccccc2SC(c2cccc([N+](=O)[O-])c2)C1,,H37Rv,,,resazurin,MIC,,<6.25 µg/mL
COc1ccc(CCNC(=O)C(Sc2ccccn2)c2ccccc2)cc1OC,,H37Rv,,,BACTEC,inhibition,12.5 µg/mL,2%
CCN(CC)CN1C(=O)/C(=N\c2ncc(Cc3cc(OC)c(OC)c(OC)c3)c(N)n2)c2cc(F)ccc21,,H37Rv,,,,EC50,,>6.25 µg/mL
CCCCCCCCCCCCCCCCN(/N=C/c1ccc([N+](=O)[O-])o1)C(N)=O,,H37Rv,,,resazurin,MIC bound,,>6.25 µg/mL
COc1cc(Cc2cnc(/N=C3\C(=O)N(CN4CCN(c5cccc(Cl)c5)CC4)c4ccc(F)cc43)nc2N)cc(OC)c1OC,,H37Rv,,,,inhibition,6.25 µg/mL,20%
N#CCC(=O)N/N=C/C(O)C(O)C(O)C(O)C(=O)O,,H37Rv,,,BACTEC,MIC bound,,>12.5 µg/mL
CC(C)(C)c1ccc(C(=O)CCC(=O)NC[C@H]2CN(c3ccc(N4CCOCC4)c(F)c3)C(=O)O2)cc1,,10 clinical isolates sensitive,,,,MIC,,1–2 µg/mL
Cc1cc2oc(=O)c(C3=NN(c4ccccc4)C(c4ccccc4-c4ccccn4)C3)c(O)c2cc1C,,H37Rv,,,agar,MIC90,,>6.25 µg/mL
Cn1cc(-n2[nH]c(=O)n(-c3ccccc3)c2=O)c(=O)n(C)c1=O,,H37Rv,,,resazurin,MIC bound,,>6.25 µg/mL
CO[C@H]1/C=C/O[C@@]2(C)Oc3c(C)c(O)c4c(O)c(cc(O)c4c3C2=O)NC(=O)/C(C)=C\C=C\[C@H](C)[C@H](O)[C@@H](C)[C@@H](O)[C@@H](C)[C@H](OC(C)=O)[C@@H]1C,,Aoyama B (streptomycin-resistant),,,,MIC,,12.5 µg/mL
Cc1ccc(/C=C2\Cc3ccccc3C2=O)cc1,,H37Rv,,,broth dilution / resazurin,inhibition,12.5 µg/mL,75%
C[C@@H]1CN(c2c(F)c(N)c3c(=O)c(C(=O)O)cn(C4CC4)c3c2F)C[C@H](C)N1,,25 strains,,,,MIC90,,0.2 µg/mL
Cc1ccc(C)c2c(O)c(C3=Nc4ccccc4NC(c4cccc(O)c4)C3)c(=O)oc12,,H37Rv,,,resazurin,MIC,,>6.25 µg/mL
O=C1C2=C(c3ccccc31)C(c1ccccc1Cl)N1C(=O)CCSC1=N2,,H37Rv,,,BACTEC,MIC bound,,>12.5 µg/mL
CCC1Cn2cc([N+](=O)[O-])nc2O1,,1 isolates streptomycin-resistant,,,,MIC,,0.08 µg/mL
Nc1nc(-c2cccs2)cc(-c2cc3cc(F)ccc3nc2Cl)n1,,H37Rv,,,broth dilution,inhibition,6.25 µg/mL,9%
CCN(CC)C(C(=O)NN)c1ccccc1,,H37Rv,,,BACTEC,MIC bound,,>12.5 µg/mL
COc1cc(C2C=C(c3c(O)c4ccccc4oc3=O)Nc3ccccc3S2)cc(OC)c1OC,,H37Rv,,,resazurin,MIC,,<6.25 µg/mL
O=c1oc2ccccc2c(O)c1C1=NNC(c2ccccc2-c2ccccn2)C1,,INHR-MTB,Isoniazid-resistant,,agar,MIC90,,16.25 µg/mL
Cc1ccc(/C=C2\COc3ccccc3C2=O)cc1,,H37Rv,,,broth dilution / resazurin,EC50,,1.43 µg/mL
N#Cc1c(-c2ccc(Cl)c(Cl)c2)cc(-c2cc3cc(Br)ccc3nc2Cl)nc1N,,H37Rv,,,broth dilution,inhibition,6.25 µg/mL,3%
CCOC(=O)c1cn(CC)c2c(cc([N+](=O)[O-])c3cccnc32)c1=O,,BCG,gyrA mutation A90V,,,MIC90,,2.5 µM
Cl.Cn1c2cc(=O)ccc2c2c3nc4ccccc4[nH]c3cc(O)c21,,H37Rv,,,BACTEC,MIC bound,,>12.5 µg/mL
C=C(CC[C@@H](C)[C@H]1CC[C@H]2[C@@H]3[C@@H](C=O)[C@]4(O)C[C@@H](O)CC[C@]4(C)[C@H]3CC[C@]12C)C(C)C,,H37Rv,,,,MIC,,11.2 µg/mL
Cc1cc2oc(=O)c(C(=O)/C=C/c3ccc(Cl)cc3Cl)c(O)c2cc1C,,H37Rv,,,agar,MIC90,,>6.25 µg/mL
NC(=O)/C(=C\c1ccccc1)n1nc2ccccc2n1,,H37Rv,,,,EC50,,>12.5 µg/mL
COc1cc(OC)c(OC)cc1/C=N/N=C(\N)NO,,H37Rv,,,resazurin,MIC bound,,>6.25 µg/mL
COc1cc(/C=C(\C#N)n2nc3ccccc3n2)cc(OC)c1OC,,H37Rv,,,,EC50,,>12.5 µg/mL
CCn1cc(C(=O)O)c(=O)c2cc(F)c(N3CCN(CN4C(=O)/C(=N\c5ncc(Cc6cc(OC)c(OC)c(OC)c6)c(N)n5)c5cc(F)ccc54)C(C)C3)c(F)c21,,H37Rv,,,,EC50,,<6.25 µg/mL
O=c1oc2ccccc2c(O)c1C1=CC(c2cccc(O)c2)Sc2ccccc2N1,,H37Rv,,,resazurin,MIC,,<6.25 µg/mL
O=C(c1ccccc1)c1c(CO[N+](=O)[O-])n([O-])c2ccccc2[n+]1=O,,CS-R,,,,MIC,,6.3 µg/mL
COc1cc(Cc2cnc(/N=C3\C(=O)N(CN4CCN(c5ccc(Cl)cc5)CC4)c4ccc(F)cc43)nc2N)cc(OC)c1OC,,H37Rv,,,,EC50,,>6.25 µg/mL
COc1cc(Cc2cnc(N)nc2N)cc(OC)c1OC,,H37Rv,,,,MIC,,>100 µM
N#Cc1c(-c2ccc(Br)cc2)cc(-c2cc3cc(F)ccc3nc2Cl)nc1N,,H37Rv,,,broth dilution,inhibition,6.25 µg/mL,99%
S=C(S)N1CCCC1,,PAS-R,,,,MIC,,0.4 µg/mL
O=c1oc2ccccc2c(O)c1C1=NN(c2ccccc2)C(c2ccc(C(F)(F)F)cc2)C1,,INHR-MTB,Isoniazid-resistant,,agar,MIC90,,>6.25 µg/mL
O=C(CCC(=O)c1ccc2ccccc2c1)NC[C@H]1CN(c2ccc(-n3cncn3)c(F)c2)C(=O)O1,,ATCC 27294,,,,MIC,,2 µg/mL
O=C(O)c1ccc(-c2c3ccc(=O)cc-3oc3cc(O)ccc23)cc1,,H37Rv,,,BACTEC,inhibition,12.5 µg/mL,3%
CCn1cc(C(=O)O)c(=O)c2cc(F)c(N3CCN(CN4C(=O)/C(=N\c5ncc(Cc6cc(OC)c(OC)c(OC)c6)c(N)n5)c5cc(F)ccc54)CC3)cc21,,H37Rv,,,,EC50,,<6.25 µg/mL
CCn1cc(C(=O)O)c(=O)c2cc([N+](=O)[O-])c3cccnc3c21,,BCG,gyrA mutation A90V,,,MIC90,,2.67 µM
O=C(NC(=S)c1cccc2ccccc12)NS(=O)(=O)c1ccc(Cl)cc1,,H37Rv,,,resazurin,MIC bound,,>6.25 µg/mL
CCOC(=O)c1ccc(N2CCN(CCn3c(-c4ccc(Cl)cc4)nc4cc(C(=O)OCC)ccc43)CC2)c(N)c1,,INHR-MTB,Isoniazid-resistant,,resazurin,MIC,,24.12 µM
CC(C)(C)c1ccc(C(=O)CCC(=O)NC[C@H]2CN(c3ccc(-n4cncn4)c(F)c3)C(=O)O2)cc1,,ATCC 27294,,,,MIC,,2 µg/mL
CC[C@H]1OC(=O)[C@H](C)[C@@H](O[C@H]2C[C@@](C)(OC)[C@@H](O)[C@H](C)O2)[C@H](C)[C@@H](O[C@@H]2O[C@H](C)C[C@H](N(C)C)[C@H]2O)[C@](C)(O)C[C@@H](C)C(=O)[C@H](C)[C@@H](O)[C@]1(C)O,,,,,,MIC50,,>10 µg/mL
Cc1ccc(S(=O)(=O)NC(=O)NNC(=O)C(=O)Nc2ccc(F)cc2)cc1,,H37Rv,,,BACTEC,MIC bound,,>12.5 µg/mL
CCOC(=O)c1ccc(N2CCN(CCn3c(-c4ccccc4)nc4cc(C(=O)OCC)ccc43)CC2)c(N)c1,,INHR-MTB,Isoniazid-resistant,,resazurin,MIC,,64.78 µM
O=C(/C=C/c1cc2cc(Br)ccc2nc1Cl)c1ccc(Cl)c(Cl)c1,,H37Rv,,,broth dilution,inhibition,6.25 µg/mL,5%
CN(C)c1ccc(/C=N/NC=O)c(Cl)c1,,H37Rv,,,BACTEC,inhibition,12.5 µg/mL,17%
O=c1cc(-c2ccccc2)c2cc(Cl)ccc2o1,,,Streptomycin-resistant,,resazurin,MIC90,,>100 µg/mL
CCOC(=O)c1ccc(N2CCN(CCn3c(-c4ccc(O)cc4O)nc4cc(C(=O)OCC)ccc43)CC2)c(N)c1,,INHR-MTB,Isoniazid-resistant,,broth dilution,MIC,,26.12 µM
CO[C@H]1/C=C/O[C@@]2(C)Oc3c(C)c(O)c4c(=O)c(c5oc6cc(N7CCN(CC(C)C)CC7)cc(=O)c6nc5c4c3=C2O)NC(=O)/C(C)=C\C=C\[C@H](C)[C@H](O)[C@@H](C)[C@@H](O)[C@@H](C)[C@H](OC(C)=O)[C@@H]1C,,H37Rv,,,,MBC,,0.15–0.6 µg/mL
N#C/C(=C\c1ccc(-c2ccccc2)cc1)n1nnc2ccccc21,,H37Rv,,,,inhibition,12.5 µg/mL,0%
COc1nn(-c2cccc(Oc3ccccc3)c2)c(=O)o1,,,,,,MIC99,,>20 µg/mL
O=C1/C(=C/c2ccccc2Br)COc2ccccc21,,H37Rv,,,broth dilution / resazurin,inhibition,10 µg/mL,73%
N[C@H]1CCN(c2nc3c(cc2F)c(=O)c(C(=O)O)cn3C2CC2)C1,Macrophages,H37Rv,,inside macrophages,,EC50,,<0.5 µg/mL
CC(C)[C@H]1C(=O)OC[C@@H](NC(=O)c2cnc3ccccc3n2)C(=O)N[C@@H](C)C(=O)N(C)[C@@H]2CSSC[C@H](C(=O)N1C)N(C)C(=O)[C@H](C)NC(=O)[C@H](NC(=O)c1cnc3ccccc3n1)COC(=O)[C@H](C(C)C)N(C)C2=O,,CS-R,,,,MIC,,<1 µg/mL
COc1cccc(N2CCN(CN3C(=O)/C(=N\c4ncc(Cc5cc(OC)c(OC)c(OC)c5)c(N)n4)c4cc(F)ccc43)CC2)c1,,H37Rv,,,,inhibition,6.25 µg/mL,63%
CC1CN(c2cc3c(cc2F)c(=O)c(C(=O)O)cn3-c2ccc(F)cc2F)CCN1,,,,,,MIC90,,2.3 µg/mL
CCOC(=O)c1ccc(N2CCN(CCn3c(-c4cncc(-c5ccc(F)cc5)c4)nc4cc(C(=O)OCC)ccc43)CC2)c(N)c1,,H37Rv,,,resazurin,MIC,,0.112 µM
N#C/C(=C\c1ccc[nH]1)n1nnc2ccccc21,,H37Rv,,,,inhibition,12.5 µg/mL,14%
Cc1ccn2c(N=O)c(-c3ccccc3)nc2c1,VERO,H37Rv,,,BACTEC,MIC,,0.39 µg/mL
COc1ccc(/C=C(/C#N)n2nc3ccccc3n2)cc1OC,,H37Rv,,,,EC50,,>12.5 µg/mL
Oc1ccc2ccccc2c1/C=N/Nc1ccc2ccccc2n1,,H37Rv,,,,MIC,,>12.5 µg/mL
CCOCc1ccc(-c2cc(-c3cc4cc(Br)ccc4nc3Cl)nc(N)n2)cc1,,H37Rv,,,broth dilution,inhibition,5 µg/mL,97%
CC(C(=O)O)/C(=C/c1ccc2c(c1)OCO2)C(=O)O,,H37Rv,,,resazurin,inhibition,6.25 µg/mL,7%
NC(=O)/C(=C\c1ccc(Cl)cc1)n1nc2ccccc2n1,,H37Rv,,,,inhibition,12.5 µg/mL,0%

Repeating the final 6 entries:

compound,cell line,strain,changes,conditions,read by,read-out,tested at,value
Cc1ccn2c(N=O)c(-c3ccccc3)nc2c1,VERO,H37Rv,,,BACTEC,MIC,,0.39 µg/mL
COc1ccc(/C=C(/C#N)n2nc3ccccc3n2)cc1OC,,H37Rv,,,,EC50,,>12.5 µg/mL
Oc1ccc2ccccc2c1/C=N/Nc1ccc2ccccc2n1,,H37Rv,,,,MIC,,>12.5 µg/mL
CCOCc1ccc(-c2cc(-c3cc4cc(Br)ccc4nc3Cl)nc(N)n2)cc1,,H37Rv,,,broth dilution,inhibition,5 µg/mL,97%
CC(C(=O)O)/C(=C/c1ccc2c(c1)OCO2)C(=O)O,,H37Rv,,,resazurin,inhibition,6.25 µg/mL,7%
NC(=O)/C(=C\c1ccc(Cl)cc1)n1nc2ccccc2n1,,H37Rv,,,,inhibition,12.5 µg/mL,0%

ECn is the concentration giving n% inhibition of infection, replication or growth. An empty or dashed field is not shown. MIC bound comes from a single tested concentration. MIC50, MIC90 and the like: level of inhibition, or share of isolates inhibited. Inhibition is in % at the dose shown (toxicity tests: loss of growth or viability). Conditions beyond the fields shown may differ between rows.